Test results reported in patent US20130096054A1, “LATENT HUMAN IMMUNODEFICIENCY VIRUS REACTIVIATION” (priority 2010, published 2013).
*1 amine or outer side, *2 acyl side, *3 side chain or, on linkers, in order; H or OH if unused. Where a SMILES comes first, the peptide text is derived from it. Bridges are numbered along the chain shown (N, C = ends). Roman numbers before positions name the chains, in order. [ ]: non-standard residue; d: D form. Actinocin(9to1) = Cc1c2oc3c(C)ccc(C(=O)[*:1])c3nc-2c(C(=O)[*:2])c(N)c1=O; NMeV = CN[C@H](C(=O)O)C(C)C; Sar = CNCC(=O)O

System: latently HIV-1 infected CA5 T cells
Experimental: CA5 T cells were pretreated with increasing concentrations of dactinomycin (DM) (FIG. 11A), the DNA intercalator daunorubicin (DR) (FIG. 11B), or the transcription inhibitors DRB (FIG. 11 C) and α-amanitin (FIG. 11D) (concentrations indicated). The cells were then left unstimulated (white circles) or activated with a sub-optimal concentration of HRF (black circles). Reactivation levels were determined as the percentage of GFP-positive cells 24 hours after stimulation. Viability of the cells correlates with the size of the symbol (size range adjusted to 5-95%).
Infection levels in the cell cultures were monitored by flow cytometric analysis of EGFP expression. Flow cytometric analysis was performed on a GUAVA EasyCyte (Millipore; Billerica, Mass.), or a LSRII (Becton & Dickinson; Franklin Lakes, N.J.).
Bacteria from various sources were isolated on TSA II agar plates containing 5% sheep blood. Bacterial isolates were then grown in RPMI 1640 medium supplemented with 10% FBS. After two days of incubation at 37° C. bacteria were pelleted and resuspended in RPMI medium to an optical density (OD600) of 8, aliquoted and frozen at −80° C. […] HRF activity was determined by its ability to reactivate latent HIV-1 infection in CA5 cells. […]
Infection levels in the cell cultures were monitored by flow cytometric (FCM) analysis of GFP expression. […]

Cc1c2oc3c(C)ccc(C(=O)N[C@@H]4C(=O)N[C@H](C(C)C)C(=O)N5CCC[C@H]5C(=O)N(C)CC(=O)N(C)[C@@H](C(C)C)C(=O)O[C@@H]4C)c3nc-2c(C(=O)N[C@@H]2C(=O)N[C@H](C(C)C)C(=O)N3CCC[C@H]3C(=O)N(C)CC(=O)N(C)[C@@H](C(C)C)C(=O)O[C@@H]2C)c(N)c1=O [dactinomycin] (I: T[dV]P[Sar][NMeV] / II: T[dV]P[Sar][NMeV]; ester I:1-I:C, II:1-II:C; linker I:N-II:N via Actinocin(9to1))
optimal pretreatment time (before activator addition): 18 h | time of maximum reactivation effects after stimulation (dactinomycin pretreatment): 48 h
